A mixed list of measured activities; the numbers were collected in NIAID ChemDB.

All rows: whole-cell or culture tests; agent: Staphylococcus aureus

MIC50, MIC90 and the like: level of inhibition, or share of isolates inhibited. Lines come from different laboratories, so protocols vary.

compound	measure	strain or isolate	value
CCCCCCCCCCCC[N+](C)(C)COCCCC	MBC	ATCC 6538	4.46 µM
Cc1c(N)c(F)cc2c(=O)c(C(=O)O)cn(-c3cc(N)c(F)cc3F)c12	MIC	W200 (methicillin-resistant)	0.03 µg/mL
CCOC(=S)NC[C@H]1CN(c2ccc3c(c2)-n2cccc2COC3)C(=O)O1	MIC	ATCC 49951 (SMITH)	4 µg/mL
CC[C@H]1OC(=O)[C@H](C)C(=O)[C@H](C)[C@@H](O[C@@H]2O[C@H](C)C[C@H](N(C)C)[C@H]2O)[C@@]2(C)C[C@@H](C)C(=NC(C)=O)[C@H](C)C(OC/C(=C\C=C\c3cccnc3)CO2)[C@]1(C)O	MIC	29213 (erythromycin-susceptible)	0.5 µg/mL
CCCCCCCCCCCC[N+](C)(C)COCCC	MBC	ATCC33592	3.1 µM
COC(=O)N1CC=C(c2ccc(C3=NO[C@H](CNC(=O)O)C3)cc2)CC1	MIC	UC9218	>16 µg/mL
Cc1c(NCCO)c(F)cc2c(=O)c(C(=O)O)cn(-c3cc(N)c(F)cc3F)c12	MIC50	27 isolates (methicillin-resistant)	0.03 µg/mL
O=C(O)NC[C@H]1CC(c2cc(F)c(N3CCOCC3)c(F)c2)=NO1	MIC	UC9218	4 µg/mL
CC[C@H]1OC(=O)[C@H](C)C(=O)[C@H](C)[C@@H](O[C@@H]2O[C@H](C)C[C@H](N(C)C)[C@H]2O)[C@@]2(C)C[C@@H](C)C(=NC(=O)CN)[C@H](C)C(OC/C(=C\C=C\c3ccccc3)CO2)[C@]1(C)O	MIC	29213 (erythromycin-susceptible)	1 µg/mL
O=C(CCl)NC[C@H]1CN(c2ccc3c(c2)-n2cccc2COC3)C(=O)O1	MIC	ATCC 49951 (SMITH)	2 µg/mL
O=C(O)NC[C@H]1CC(c2ccc(N3CCOCC3)c(F)c2)=NO1	MIC	UC9218	4 µg/mL
N#Cc1ccc(N2CCN(c3ccc(N4C[C@H](CNc5ccon5)OC4=O)cc3F)CC2)nn1	MIC	122 (novobiocin-resistant)	2 µg/mL
CC[C@H]1OC(=O)[C@H](C)C(=O)[C@H](C)[C@@H](O[C@@H]2O[C@H](C)C[C@H](N(C)C)[C@H]2O)[C@@]2(C)C[C@@H](C)C(=NC(=O)CO)[C@H](C)C(OC/C(=C\C=C\c3ccccc3)CO2)[C@]1(C)O	MIC	33591 (erythromycin methicillin-resistant)	32 µg/mL
N#Cc1ccc(N2CCN(c3ccc(N4C[C@H](CNc5cnccn5)OC4=O)cc3F)CC2)nn1	MIC	004 (methicillin quinolone-resistant)	0.5 µg/mL
CCC(=O)N=C1[C@H](C)C[C@@]2(C)OC/C(=C/C=C/c3ccccc3)COC([C@H]1C)[C@](C)(O)[C@@H](CC)OC(=O)[C@H](C)C(=O)[C@H](C)[C@H]2O[C@@H]1O[C@H](C)C[C@H](N(C)C)[C@H]1O	MIC	33591 (erythromycin methicillin-resistant)	>64 µg/mL
O=C(NC[C@H]1CN(c2ccc3c(c2)-n2cccc2COC3)C(=O)O1)C(Cl)Cl	MIC	ATCC 33591 (MRSA)	4 µg/mL
N#Cc1ccn(-c2ccc(N3C[C@H](COc4ccon4)OC3=O)cc2F)c1	MIC	078 (oxford)	0.5 µg/mL
O=C(CBr)NC[C@H]1CN(c2ccc3c(c2)-n2cccc2COC3)C(=O)O1	MIC	ATCC 29213 (MSSA)	4 µg/mL
CO/N=C1\CN(c2nc3c(cc2F)c(=O)c(C(=O)O)cn3C2CC2)CC1CN	MIC	KU2242	0.063 µg/mL
CCC(=S)NC[C@H]1CN(c2ccc3c(c2)-n2cccc2COC3)C(=O)O1	MIC	ATCC 49951 (SMITH)	4 µg/mL
CC[C@H]1OC(=O)[C@H](C)C(=O)[C@H](C)[C@@H](O[C@@H]2O[C@H](C)C[C@H](N(C)C)[C@H]2O)[C@@]2(C)C[C@@H](C)C(=NC(C)=O)[C@H](C)C(OC/C(=C\c3cnc4ccccc4c3)CO2)[C@]1(C)O	MIC	27660 (erythromycin-resistant)	0.5 µg/mL
CCCCCCCCCCCC[N+](C)(C)COC(C)CCC	MBC	ATCC 6538	14.3 µM
COC(=O)NC[C@H]1CN(c2ccc3c(c2)-n2cccc2COC3)C(=O)O1	MIC	ATCC 33591 (MRSA)	4 µg/mL
CC[C@H]1OC(=O)[C@H](C)C(=O)[C@H](C)[C@@H](O[C@@H]2O[C@H](C)C[C@H](N(C)C)[C@H]2O)[C@@]2(C)C[C@@H](C)C(=NC(C)=O)[C@H](C)C(OC/C(=C\C#Cc3ccc(N)cc3)CO2)[C@]1(C)O	MIC	33591 (erythromycin methicillin-resistant)	>64 µg/mL
N#Cc1cnn(-c2ccc(C3=NO[C@@H](CNC(=O)O)C3)cc2F)c1	MIC	UC9218	2 µg/mL
CC[C@H]1OC(=O)[C@H](C)C(=O)[C@H](C)[C@@H](O[C@@H]2O[C@H](C)C[C@H](N(C)C)[C@H]2O)[C@@]2(C)C[C@@H](C)C(=NC(C)=O)[C@H](C)C(OC/C(=C\C=C\c3cccc([N+](=O)[O-])c3)CO2)[C@]1(C)O	MIC	33591 (erythromycin methicillin-resistant)	64 µg/mL
N=Cc1cn(-c2ccc(N3C[C@H](COc4ccon4)OC3=O)cc2F)cn1	MIC	122 (novobiocin-resistant)	2 µg/mL
CCCCCCCC[N+](C)(C)COCCC(C)CCCC(C)C	MBC	ATCC 6538	13.7 µM
O=CNC[C@H]1CN(c2ccc3c(c2)-n2cccc2COC3)C(=O)O1	MIC	ATCC 33591 (MRSA)	8 µg/mL
CCCCCCCCCCCC[N+](C)(C)COCC(CC)CCC	MBC	ATCC33592	12.8 µM
O=C(NC[C@H]1CN(c2ccc3c(c2)-n2cccc2COC3)C(=O)O1)c1ccccc1	MIC	ATCC 29213 (MSSA)	>32 µg/mL
Cc1c(NC(C)C)c(F)cc2c(=O)c(C(=O)O)cn(-c3cc(N)c(F)cc3F)c12	MIC	MR8736 (methicillin-resistant)	0.5 µg/mL
C=C1COC2[C@@H](C)C(=NC(C)=O)[C@H](C)C[C@@](C)(OC1)[C@H](O[C@@H]1O[C@H](C)C[C@H](N(C)C)[C@H]1O)[C@@H](C)C(=O)[C@@H](C)C(=O)O[C@H](CC)[C@@]2(C)O	MIC	33591 (erythromycin methicillin-resistant)	>64 µg/mL